Tested on: Mycobacterium bovis BCG
Assay: in vivo growth inhibition assay in M. bovis BCG
Format: cell-based
Settings: pSTKT, Ptet, without inducer ATc; 3 weeks; versus empty vector

For `CC[C@H](C)[C@H](NC(=O)[C@H](Cc1ccccc1)NC(=O)[C@H](CCC(N)=O)NC(=O)[C@H](C)NC(=O)[C@@H]1CCCN1C(=O)[C@@H](NC(=O)[C@H](Cc1c[nH]cn1)NC(=O)[C@H](Cc1c[nH]cn1)NC(=O)[C@H](Cc1c[nH]cn1)NC(=O)[C@H](Cc1c[nH]cn1)NC(=O)[C@H](Cc1c[nH]cn1)NC(=O)[C@H](Cc1c[nH]cn1)NC(=O)[C@@H](N)CCSC)[C@@H](C)O)C(=O)N[C@@H](Cc1ccccc1)C(=O)N[C@@H](Cc1ccccc1)C(=O)N[C@@H](CCCNC(=N)N)C(=O)N[C@H](C(=O)N[C@@H](CCCCN)C(=O)N[C@H](C(=O)N[C@@H](CCCNC(=N)N)C(=O)N[C@@H](CC(N)=O)C(=O)N[C@@H](Cc1c[nH]c2ccccc12)C(=O)N[C@@H](Cc1c[nH]cn1)C(=O)N[C@H](C(=O)N[C@@H](CO)C(=O)N[C@H](C(=O)N[C@@H](CO)C(=O)N[C@H](C(=O)N[C@@H](CCCCN)C(=O)N[C@@H](C)C(=O)N[C@@H](Cc1c[nH]c2ccccc12)C(=O)N[C@@H](CC(C)C)C(=O)N[C@@H](Cc1ccccc1)C(=O)N[C@@H](Cc1c[nH]c2ccccc12)C(=O)N[C@@H](CCCNC(=N)N)C(=O)N[C@@H](CCSC)C(=O)N[C@@H](CCCNC(=N)N)C(=O)N[C@@H](CCC(=O)O)C(=O)N[C@@H](CC(=O)O)C(=O)N[C@@H](Cc1ccccc1)C(=O)N[C@@H](CCC(N)=O)C(=O)N1CCC[C@H]1C(=O)N[C@@H](CC(=O)O)C(=O)N[C@H](C(=O)N[C@@H](CC(=O)O)C(=O)O)[C@@H](C)O)C(C)C)C(C)C)[C@@H](C)O)C(C)C)C(C)C` [peptide 33], the “transformants obtained (in words)” value was “fewer colonies than those obtained from the transformation with the empty vector”.

Reference: article PMC8141534 (The Journal of Biological Chemistry, 2021)
